A mixed list of measured activities; the numbers were collected in NIAID ChemDB.

All rows: enzyme or target tests; agent: Hepatitis C virus

ICn is the concentration giving n% inhibition. Neighbouring rows are from separate reports.

CSCC[C@H](NC(=O)[C@H](CCC(=O)O)NC(=O)[C@@H](N)CC(=O)O)C(=O)N[C@@H](CCC(=O)O)C(=O)N[C@@H](CCC(=O)O)C(=O)N[C@@H](CS)C(=O)NS(=O)(=O)C(C)=O ; read-out: IC50 ; protein: NS3 protease ; result: 4 µM
CCC[C@H](NC(=O)[C@H](Cc1ccc2ccccc2c1)NC(=O)[C@H](CCC(=O)O)NC(=O)[C@@H](NC(=O)CCC(=O)O)C1CCCCC1)C(=O)NS(=O)(=O)C(C)C ; read-out: Ki ; protein: NS3 protease ; result: 12 µM
O=C1/C(=C\c2ccc(F)cc2)SC(=S)N1NS(=O)(=O)c1ccccc1 ; read-out: IC50 ; protein: NS5B polymerase ; result: ≤30 µM
CCCC(NC(=O)[C@@H]1C2CCCC2CN1C(=O)[C@@H](NC(=O)[C@H](CC1CCCCC1)NC(=O)c1cnccn1)C(C)(C)C)C(=O)C(=O)NC1CC1 ; read-out: Ki ; protein: Nonstructural protein 3 protease ; result: 0.07 µM
COc1ccc2c(OC3CC(C(=O)NC4(C(=O)NS(=O)(=O)c5ccccc5)CC4)N(C(=O)[C@@H](NC(=O)OC(C)(C)C)C(C)C)C3)cc(-c3ccccc3)nc2c1 ; read-out: Ki ; protein: NS3 protease ; result: 0.03 µM
CC(C)[C@H](NC(=O)[C@H](CCC(=O)O)NC(=O)[C@@H](N)CC(=O)O)C(=O)N[C@H](C(=O)N[C@@H](CS)C(=O)N[C@@H](CS)C(=O)O)C(C)C ; read-out: IC50 ; protein: NS3 protease ; result: 2.1 µM
C=C[C@@H]1C[C@]1(NC(=O)[C@@H]1C[C@@H](Oc2cc(-c3ccccc3)nc3cc(OC)ccc23)CN1C(=O)[C@@H](NC(=O)OC(C)(C)C)C(C)(C)C)C(=O)O ; read-out: IC50 ; strain or isolate: BMS ; protein: NS3/NS4A protease ; result: <0.5 µM
CC(C)COC(=O)N[C@H](C(=O)N(C)[C@@H](CC1CC1)C(=O)NC(CC1CC1)C(=O)C(=O)NCC(=O)N[C@H](C(=O)N(C)C)c1ccccc1)C1CCCCC1 ; read-out: Ki ; protein: NS3 serine protease ; result: 0.06 µM
CCC[C@H](NC(=O)[C@@H]1C2CCCC2CN1C(=O)[C@@H](NC(=O)[C@@H](NC(=O)c1cnccn1)C1CCCCC1)C(C)(C)C)C(=O)C(=O)N[C@@H](C)Cc1ccccc1 ; read-out: Ki ; protein: Nonstructural protein 3 protease ; result: 0.046 µM
CCC[C@H](NC(=O)C1CC(Oc2cc(-c3ccccc3)nc3cc(OC)ccc23)CN1C(=O)[C@@H](NC(=O)OC(C)(C)C)C(C)C)C(=O)NS(=O)(=O)c1ccccc1 ; read-out: Ki ; protein: NS3 protease ; result: 0.3 µM
CCC[C@@H](C=O)NC(=O)[C@H](CC)NC(=O)[C@@H](NC(=O)[C@@H](NC(=O)[C@H](CC(=O)O)NC(=O)[C@H](CCC(=O)O)NC(C)=O)C(C)C)C(C)C ; read-out: IC50 ; protein: NS3/NS4A protease ; result: 12 µM
CC(=O)N[C@H](C(=O)N[C@@H](CCC(=O)O)C(=O)N[C@@H](CC1CCCCC1)C(=O)N[C@@H](CS)C(=O)O)C(c1ccccc1)c1ccccc1 ; read-out: IC50 ; protein: HCV NS3 protease ; result: 30 µM
CCCC(NC(=O)[C@@H]1C2CCCC2CN1C(=O)[C@@H](NC(=O)[C@@H](CC(C1CCCCC1)C1CCCCC1)NC(=O)c1cnccn1)C(C)(C)C)C(=O)C(=O)NC1CC1 ; read-out: Ki ; protein: Nonstructural protein 3 protease ; result: 0.655 µM
CCCN(NC(=O)[C@@H]1CCCN1C(=O)[C@@H](NC(=O)[C@@H](NC(=O)[C@H](CC(=O)O)NC(=O)[C@H](CCC(=O)O)NC(=O)[C@@H](NC(C)=O)[C@@H](C)O)C(C)C)C(C)C)C(=O)Oc1ccc([N+](=O)[O-])cc1 ; read-out: Ki ; protein: HCV NS3 protease ; result: 5 µM
CC(=O)N[C@@H](CC(=O)O)C(=O)N[C@@H](CCC(=O)O)C(=O)N[C@@H](CC(C)C)C(=O)N[C@@H](CCC(=O)O)C(=O)N[C@@H](CC1CCCCC1)C(=O)N[C@@H](CS)C(=O)O ; read-out: IC50 ; protein: NS3/NS4A protease ; result: 0.14 µM
COc1ccc(/C=C2/SC(=S)N(N)C2=O)cc1 ; read-out: IC50 ; protein: NS5B polymerase ; result: >30 µM
C=C[C@H]1CC1(NC(=O)[C@@H]1C[C@@H](Oc2nc(N3CCOCC3)nc3cc(OC)c(OC)cc23)CN1C(=O)[C@@H](Nc1ccc(C(=O)OC(C)(C)C)cc1)C(C)(C)C)C(=O)O ; read-out: IC50 ; protein: HCV NS3/NS4A protease ; result: 0.05 µM
CCC[C@H](NC(=O)C1CC(Oc2cc(-c3ccccc3)nc3cc(OC)ccc23)CN1C(=O)[C@@H](NC(=O)OC(C)(C)C)C(C)C)C(=O)NS(=O)(=O)CCc1ccccc1 ; read-out: Ki ; protein: NS3 protease ; result: 0.42 µM
N[C@@H](CC(=O)O)C(=O)N[C@@H](CCC(=O)O)C(=O)N[C@@H](CC1CCCCC1)C(=O)N[C@@H](CCC(=O)O)C(=O)N[C@@H](CC1CCCCC1)C(=O)N[C@@H](CS)C(=O)O ; read-out: IC50 ; protein: NS3 protease ; result: 0.14 µM
CC(=O)N[C@@H](CC(=O)O)C(=O)N[C@@H](CCC(=O)O)C(=O)N[C@H](C(=O)N[C@@H](CCC(=O)O)C(=O)N[C@@H](CC1CCCCC1)C(=O)N[C@@H](CS)C(=O)O)c1ccccc1 ; read-out: IC50 ; protein: HCV NS3 protease ; result: 0.12 µM
COc1ccc2c(O[C@@H]3C[C@@H](C(=O)NC4(C(=O)O)CC4)N(C(=O)[C@@H](NC(=O)OC(C)(C)C)C(C)(C)C)C3)cc(-c3ccccc3)nc2c1 ; read-out: IC50 ; protein: HCV NS3/NS4A protease ; result: 0.475 µM
CC[C@H](C)[C@H](NC(=O)[C@@H](NC(=O)[C@H](CCC(=O)O)NC(=O)[C@H](CC(=O)O)NC(C)=O)C(c1ccccc1)c1ccccc1)C(=O)N[C@@H](CC1CCCCC1)C(=O)N[C@@H](CS)C(N)=O ; read-out: IC50 ; protein: NS3/NS4A protease ; result: 3.1 µM
C=C[C@@H]1C[C@]1(NC(=O)[C@@H]1C[C@@H](Oc2cc(-c3ccccc3)nc3cc(OC)ccc23)CN1C(=O)[C@@H](NC(=O)OC(C)(C)C)C(C)(C)C)C(=O)NS(=O)(=O)c1ccccc1C(=O)OC ; read-out: IC50 ; strain or isolate: BMS ; protein: NS3/NS4A protease ; result: <0.5 µM
CCC[C@H](NC(=O)[C@H](CC1CCCCC1)NC(=O)[C@@H](NC(=O)[C@@H](NC(=O)CCC(=O)O)C1CCCCC1)C(C)CC)C(=O)NS(=O)(=O)c1ccccc1 ; read-out: Ki ; protein: NS3 protease ; result: 5.3 µM
CC[C@H](C)[C@H](NC(=O)[C@@H](NC(=O)[C@H](CCC(=O)O)NC(=O)[C@H](CC(=O)O)NC(C)=O)C(c1ccccc1)c1ccccc1)C(=O)N[C@@H](CC1CCCCC1)C(=O)N[C@@H](CS)C(=O)O ; read-out: IC50 ; protein: HCV NS3 protease ; result: 0.06 µM
C=C[C@H]1CC1(NC(=O)[C@@H]1C[C@@H](Oc2cc(-c3ccccc3)nc3ccccc23)CN1C(=O)[C@@H](NC(=O)C(F)(F)F)C(C)C)C(=O)O ; read-out: IC50 ; protein: HCV NS3/NS4A protease ; result: 0.88 µM
CCC[C@H](NC(=O)C1CC(Oc2cc(-c3ccccc3)nc3cc(OC)ccc23)CN1C(=O)[C@@H](NC(=O)OC(C)(C)C)C(C)C)C(=O)NS(=O)(=O)C(C)C ; read-out: Ki ; protein: NS3 protease ; result: 0.58 µM
C=CCC(C=O)NC(=O)[C@H](CCC(=O)O)NC(=O)[C@H](CCC(=O)O)NC(=O)[C@H](CCSC)NC(=O)[C@H](CCC(=O)O)NC(=O)[C@H](CC(=O)O)NC(C)=O ; read-out: IC50 ; protein: NS3/NS4A protease ; result: 1.8 µM
CC[C@H](NC(=O)[C@@H](NC(=O)[C@@H](NC(=O)[C@H](CC(=O)O)NC(=O)CCC(=O)O)C(C)C)C(C)C)C(=O)N[C@@H](CS)C(=O)O ; read-out: IC50 ; protein: NS3 protease ; result: 4.6 µM
C=C[C@@H]1C[C@]1(NC(=O)[C@@H]1C[C@@H](Oc2cc(-c3ccccc3)nc3cc(OC)ccc23)CN1C(=O)[C@@H](NC(=O)OC1CCOC1)C(C)(C)C)C(=O)NS(=O)(=O)C1CC1 ; read-out: IC50 ; strain or isolate: BMS ; protein: NS3/NS4A protease ; result: <0.05 µM
C=C[C@H]1CC1(NC(=O)[C@@H]1C[C@@H](Oc2cc(-c3cccc(OC)c3)nc3cc(OC)ccc23)CN1C(=O)[C@@H](NC(=O)OC(C)(C)C)C(C)(C)C)C(=O)O ; read-out: IC50 ; protein: HCV NS3/NS4A protease ; result: 0.07 µM
CC(C)(C)[C@H](NC(=O)[C@@H](NC(=O)c1cnccn1)C1CCCCC1)C(=O)N1CC2CCCC2[C@H]1C(=O)NC(CC(F)F)C(=O)C(=O)NC1CC1 ; read-out: Ki ; protein: Nonstructural protein 3 protease ; result: 0.025 µM
C=C[C@@H]1C[C@]1(NC(=O)[C@@H]1C[C@@H](Oc2cc(-c3ccccc3)nc3cc(OC)ccc23)CN1C(=O)[C@@H](Nc1ccccc1[N+](=O)[O-])C(C)(C)C)C(=O)NS(=O)(=O)C1CC1 ; read-out: IC50 ; strain or isolate: BMS ; protein: NS3/NS4A protease ; result: <5 µM
CSCC[C@H](NC(=O)[C@H](CCC(=O)O)NC(=O)[C@H](CC(=O)O)NC(C)=O)C(=O)N[C@@H](CCC(=O)O)C(=O)N[C@@H](CC1CCCCC1)C(=O)N[C@@H](CS)C(=O)O ; read-out: IC50 ; protein: NS3/NS4A protease ; result: 0.35 µM
C=C[C@@H]1C[C@]1(NC(=O)[C@H]1C[C@@H](Oc2cc(-c3ccccc3)nc3cc(OC)ccc23)CN1C(=O)[C@@H](NC(=O)OC(C)(C)C)C(C)(C)C)C(=O)NS(C)(=O)=O ; read-out: IC50 ; strain or isolate: BMS ; protein: NS3/NS4A protease ; result: <0.05 µM
CN1C(=O)/C(=C\c2ccc(Cl)cc2)SC1=S ; read-out: IC50 ; protein: NS5B polymerase ; result: >30 µM
CC[C@H](C)[C@H](NC(=O)[C@H](CC(C)C)NC(=O)[C@H](CCC(=O)O)NC(=O)[C@@H](N)CC(=O)O)C(=O)N[C@@H](CC1CCCCC1)C(=O)N[C@@H](CS)C(=O)O ; read-out: IC50 ; protein: NS3 protease ; result: 0.06 µM
CC[C@H](NC(=O)[C@@H](NC(=O)[C@@H](NC(=O)[C@H](CC(=O)O)NC(=O)CCC(=O)O)C(C)C)C(C)C)C(=O)N[C@@H](CS)C(=O)O ; read-out: IC50 ; protein: HCV NS3 protease ; result: 4.6 µM
CSCC[C@H](NC(=O)[C@H](CCC(=O)O)NC(=O)[C@@H](N)CC(=O)O)C(=O)N[C@@H](CCC(=O)O)C(=O)N[C@@H](CCC(=O)O)C(=O)N[C@H](CO)CS ; read-out: IC50 ; protein: NS3 protease ; result: 130 µM
C=C[C@H]1CC1(NC(=O)[C@@H]1C[C@@H](Oc2cc(-c3ccccc3)nc3cc(OC)ccc23)CN1C(=O)[C@@H](NC(=O)c1cc[nH]c1)C(C)(C)C)C(=O)O ; read-out: IC50 ; protein: HCV NS3/NS4A protease ; result: 0.3 µM
CC[C@H](NC(=O)[C@@H](NC(=O)[C@@H](NC(=O)[C@H](CC(=O)O)NC(=O)[C@H](CCC(=O)O)NC(C)=O)C(C)C)C(C)C)C(=O)N[C@@H](CS)C(=O)O ; read-out: IC50 ; protein: HCV NS3 protease ; result: 2.8 µM
C=C[C@H]1CC1(NC(=O)[C@@H]1C[C@@H](Oc2cc(-c3ccccc3)nc3ccccc23)CN1C(=O)[C@H](C(C)C)N(C)c1ccccc1)C(=O)O ; read-out: IC50 ; protein: HCV NS3/NS4A protease ; result: 0.31 µM
CCC[C@H](NC(=O)C1CC(Oc2cc(-c3ccccc3)nc3cc(OC)ccc23)CN1C(=O)[C@@H](NC(=O)OC(C)(C)C)C(C)C)C(=O)NS(C)(=O)=O ; read-out: Ki ; protein: NS3 protease ; result: 0.77 µM
CN(C(=O)c1ccccc1)N1C(=O)/C(=C/c2ccc(Cl)c(Cl)c2)SC1=S ; read-out: IC50 ; protein: NS5B polymerase ; result: ≤30 µM
CCC[C@H](NC(=O)[C@@H]1C2CCCC2CN1C(=O)[C@@H](NC(=O)[C@@H](NC(=O)c1cnccn1)C1CCCCC1)C(C)(C)C)C(=O)C(=O)N[C@@H](C)c1ccc(C)cc1 ; read-out: Ki ; protein: Nonstructural protein 3 protease ; result: 0.136 µM
CC[C@H](C)[C@H](NC(=O)[C@H](CC(C)C)NC(=O)[C@@H](CC(C(=O)O)C(=O)O)NC(=O)[C@H](CC(=O)O)NC(C)=O)C(=O)N[C@@H](CC1CCCCC1)C(=O)N[C@@H](CS)C(=O)O ; read-out: IC50 ; protein: NS3/NS4A protease ; result: 0.0015 µM
CC(=O)N[C@@H](CC(=O)O)C(=O)N[C@@H](CCC(=O)O)C(=O)N[C@H](C(=O)N[C@@H](CCC(=O)O)C(=O)N[C@@H](CC1CCCCC1)C(=O)N[C@@H](CS)C(=O)O)C(c1ccccc1)c1ccccc1 ; read-out: IC50 ; protein: NS3/NS4A protease ; result: 0.05 µM
CCCC(NC(=O)[C@@H]1C2CCCC2CN1C(=O)[C@@H](NC(=O)[C@@H](NC(=O)c1cnccn1)C1CCCCC1)C(C)(C)C)C(=O)C(=O)N[C@@H](C)CC ; read-out: Ki ; protein: Nonstructural protein 3 protease ; result: 0.084 µM